Literature values in patent USRE39240E1 (priority 1993, dated 2006).

By UniProt entry, the sequences of proteins in these tests, tags left out.
UniProt Q00975, whole entry, looked up: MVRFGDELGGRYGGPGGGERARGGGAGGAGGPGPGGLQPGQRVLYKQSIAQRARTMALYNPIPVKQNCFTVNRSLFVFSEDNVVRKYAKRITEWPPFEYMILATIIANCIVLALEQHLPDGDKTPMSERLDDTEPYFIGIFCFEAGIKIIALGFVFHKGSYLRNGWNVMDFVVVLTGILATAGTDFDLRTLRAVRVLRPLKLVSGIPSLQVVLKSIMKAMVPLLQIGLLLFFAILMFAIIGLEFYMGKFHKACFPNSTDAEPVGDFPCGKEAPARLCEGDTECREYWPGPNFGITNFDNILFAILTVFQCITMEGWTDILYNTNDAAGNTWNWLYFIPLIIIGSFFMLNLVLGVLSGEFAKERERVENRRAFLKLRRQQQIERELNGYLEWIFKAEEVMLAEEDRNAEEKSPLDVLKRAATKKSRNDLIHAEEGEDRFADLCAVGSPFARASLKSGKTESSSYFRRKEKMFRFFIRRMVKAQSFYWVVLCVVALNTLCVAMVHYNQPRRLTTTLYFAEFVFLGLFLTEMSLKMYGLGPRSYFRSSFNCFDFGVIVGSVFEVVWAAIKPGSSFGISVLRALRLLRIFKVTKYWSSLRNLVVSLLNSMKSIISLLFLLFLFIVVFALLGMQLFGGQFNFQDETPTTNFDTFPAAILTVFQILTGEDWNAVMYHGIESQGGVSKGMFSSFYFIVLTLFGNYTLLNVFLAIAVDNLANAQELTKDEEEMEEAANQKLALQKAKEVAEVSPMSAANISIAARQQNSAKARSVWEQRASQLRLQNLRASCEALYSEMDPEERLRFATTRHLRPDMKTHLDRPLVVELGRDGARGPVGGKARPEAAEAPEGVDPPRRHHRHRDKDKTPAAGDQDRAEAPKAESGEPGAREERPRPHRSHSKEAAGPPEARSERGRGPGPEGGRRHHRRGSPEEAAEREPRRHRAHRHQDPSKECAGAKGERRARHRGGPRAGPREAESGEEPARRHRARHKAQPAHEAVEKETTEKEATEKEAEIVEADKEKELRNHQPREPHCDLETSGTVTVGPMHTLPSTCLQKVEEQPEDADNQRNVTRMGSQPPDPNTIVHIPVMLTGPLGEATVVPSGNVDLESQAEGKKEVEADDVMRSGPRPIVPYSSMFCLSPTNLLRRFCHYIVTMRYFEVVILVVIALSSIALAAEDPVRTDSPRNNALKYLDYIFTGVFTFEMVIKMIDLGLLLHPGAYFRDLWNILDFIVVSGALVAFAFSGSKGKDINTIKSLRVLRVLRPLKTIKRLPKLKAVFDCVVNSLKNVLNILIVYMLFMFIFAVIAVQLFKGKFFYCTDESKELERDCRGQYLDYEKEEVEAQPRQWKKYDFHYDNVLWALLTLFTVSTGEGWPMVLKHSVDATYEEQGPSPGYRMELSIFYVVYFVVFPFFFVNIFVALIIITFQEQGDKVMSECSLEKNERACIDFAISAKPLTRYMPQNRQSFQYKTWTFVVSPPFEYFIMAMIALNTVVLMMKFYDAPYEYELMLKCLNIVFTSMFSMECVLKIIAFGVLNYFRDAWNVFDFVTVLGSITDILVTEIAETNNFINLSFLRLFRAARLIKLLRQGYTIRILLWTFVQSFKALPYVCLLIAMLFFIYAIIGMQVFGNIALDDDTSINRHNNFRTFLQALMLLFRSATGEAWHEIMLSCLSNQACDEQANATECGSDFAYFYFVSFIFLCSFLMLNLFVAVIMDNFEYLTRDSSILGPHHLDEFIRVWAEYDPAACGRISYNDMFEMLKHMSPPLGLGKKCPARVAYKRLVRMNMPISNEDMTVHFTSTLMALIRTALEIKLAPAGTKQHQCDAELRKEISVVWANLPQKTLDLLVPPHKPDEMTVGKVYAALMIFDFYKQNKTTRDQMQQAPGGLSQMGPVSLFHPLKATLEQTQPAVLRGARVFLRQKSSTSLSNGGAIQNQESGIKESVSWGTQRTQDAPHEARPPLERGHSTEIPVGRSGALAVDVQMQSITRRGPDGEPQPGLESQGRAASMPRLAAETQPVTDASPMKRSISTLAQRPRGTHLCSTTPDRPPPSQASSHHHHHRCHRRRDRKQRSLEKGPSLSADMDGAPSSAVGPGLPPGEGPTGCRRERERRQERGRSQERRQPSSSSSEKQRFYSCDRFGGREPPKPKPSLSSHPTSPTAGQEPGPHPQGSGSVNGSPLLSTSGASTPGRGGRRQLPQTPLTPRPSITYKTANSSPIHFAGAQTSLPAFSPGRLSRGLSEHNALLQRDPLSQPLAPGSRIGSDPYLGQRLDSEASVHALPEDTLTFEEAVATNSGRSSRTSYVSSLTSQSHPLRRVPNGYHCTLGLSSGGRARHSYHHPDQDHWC

Biological target: neuronal voltage-sensitive Ca^2+ channels (Homo sapiens, UniProt Q00975)

In the case of Ω-conotoxin GVIA, the “affinity (Kd) for its high-affinity targets” value is given as “sub-picomolar” and the “time for 50% of the peptide to dissociate” value is given as “more than 7 hours”.
